Compound potency records, mixed from different reports. Data source: NIAID ChemDB in PubChem.

Common to all: whole-cell or culture tests; species: Candida albicans; endpoint: MIC

Blank or dashed fields: not listed here. Neighbouring rows are from separate reports.

smiles,conditions,strain,result
C[C@@H](c1ncncc1F)[C@](O)(Cn1cncn1)c1ccc(F)cc1F,,ATCC 90028,0.125 µg/mL
O=C(/C=C/c1ccccc1)Nc1ccc([N+](=O)[O-])cc1[N+](=O)[O-],,,0.003 µg/mL
CNc1ccc(C(=O)CC(O)CCC(C)C2OC(=O)CC(O)CC(=O)CC(O)CC(O)CC(O)CC(O)CC3(O)CC(O)C(C(=O)NCCN(C)C)C(CC(O[C@@H]4O[C@H](C)[C@@H](O)[C@H](NC(=O)CN5CCN(CCO)CC5)[C@@H]4O)/C=C/C=C/C=C/C=C\C=C/C=C/C=C/C2C)O3)cc1,,200,0.06 µg/mL
CCC(C)CCCCCCC1CC(=O)NCC(=O)N[C@@H](CCCN)C(=O)N[C@@H](C(C)CC)C(=O)N1,,ATCC 10231,5 µg/mL
CCOC(=O)/C(N=Nc1ccc(C(=O)N/N=C\c2ccc(F)cc2)cc1)=C(\C)O,,ATCC 2091,125 µg/mL
CNc1ccc(C(=O)CC(O)CCC(C)C2OC(=O)CC(O)CC(=O)CC(O)CC(O)CC(O)CC(O)CC3(O)CC(O)C(C(=O)NCCN(C)C)C(CC(O[C@@H]4O[C@H](C)[C@@H](O)[C@H](NC(=O)CN5CCN(C)CC5)[C@@H]4O)/C=C/C=C/C=C/C=C\C=C/C=C/C=C/C2C)O3)cc1,,200,0.06 µg/mL
CN[C@@H]1[C@H](O[C@@H]2OC[C@@H](O)[C@H](O)[C@H]2O)[C@@H](O)[C@H](O[C@H]2c3c(Br)c(C)c(C(=O)N[C@H](C)C(=O)O)c(O)c3-c3c(cc4c(c3O)C(=O)c3cc(OC)cc(O)c3C4=O)[C@@H]2O)O[C@@H]1C,,A9540,>100 µg/mL
OC(Cn1cncn1)(Cn1cncn1)c1ccc(F)cc1F,,,12.5 µg/mL
CNC1C(C)OC(O[C@H]2c3cc(C)c(C(=O)NC(C)C(=O)O)c(OC)c3-c3c(cc4c(c3O)Cc3cc(OC)cc(O)c3C4=O)[C@@H]2O)C(O)C1OC1OCC(O)C(O)C1O,,A9540,>100 µg/mL
CCOC(=O)c1sc(SC)c(C#N)c1N,,SKF,>100 µg/mL
Clc1ccc(COC(Cn2ccnc2)c2ccc(Cl)cc2Cl)c(Cl)c1,,ATCC 2091,0.05 µg/mL
CCCCCCCCOc1ccc(C(=O)NC2C[C@@H](O)[C@@H](O)NC(=O)C3[C@@H](O)[C@@H](C)CN3C(=O)C(C(C)O)NC(=O)C([C@H](O)[C@@H](O)c3ccc(O)cc3)NC(=O)C3C[C@@H](O)CN3C(=O)C(C(C)O)NC2=O)cc1,,Isolate 5,2 µg/mL
COc1cc(OC)c2c(ccc3c(O)c(O)c(O)cc32)c1,,,50 µg/mL
CNc1ccc(C(=O)CC(O)CCC(C)C2OC(=O)CC(O)CC(=O)CC(O)CC(O)CC(O)CC(O)CC3(O)CC(O)C(C(=O)O)C(CC(O[C@@H]4O[C@H](C)[C@@H](O)[C@H](N)[C@@H]4O)/C=C/C=C/C=C/C=C\C=C/C=C/C=C/C2C)O3)cc1,,73,0.03 µg/mL
NC(=O)/C=C/c1ccccc1,,,0.002 µg/mL
O=C1CCC(c2ccc(Cl)cc2)=NN1Cc1n[nH]c(=S)n1-c1ccc(Br)cc1,,,4 µg/mL
CCOC(=O)c1sc(SC)cc1-c1ccc(-c2cccnc2)cc1,,SKF,50 µg/mL
COc1cc(CCc2ccc(O)cc2)cc(OC)c1OC,,,50 µg/mL
C=CCn1c(-c2ccc(N=N/C(C(=O)OCC)=C(/C)O)cc2)n[nH]c1=S,,ATCC 2091,62.5 µg/mL
Cc1cc2c(c(O)c1C(=O)NCC(=O)O)-c1c(cc3c(c1O)C(=O)c1cc(OCC(N)=O)cc(O)c1C3=O)[C@H](O)[C@H]2O[C@@H]1O[C@H](C)[C@H](O)[C@H](O[C@@H]2OC[C@@H](O)[C@H](O)[C@H]2O)[C@H]1O,,A9540,50 µg/mL
CCOC(=O)c1sc(SC)c(C(=O)OCC)c1O,,SKF,>100 µg/mL
Cc1c(O)cccc1C(=O)N[C@@H](CSc1ccccc1)[C@H](O)CN1C[C@H]2CCCC[C@H]2C[C@H]1C(=O)NC(C)(C)C,,I156A,64 µg/mL
O=C1CCC(c2ccc(Br)cc2)=NN1Cc1n[nH]c(=S)n1-c1ccc(Cl)cc1,,,5 µg/mL
Nc1ccc(-c2n[nH]c(=O)n2-c2ccccc2)cc1,,ATCC 2091,62.5 µg/mL
O=C(O)/C=C/c1cccc([N+](=O)[O-])c1,,,0.002 µg/mL
COc1cc2c(cc1O)CCc1cc(OC)c(OC)c(O)c1-2,,,50 µg/mL
COc1ccc(/C=C/C(=O)O)cc1,,,0.002 µg/mL
O=C1CCC(c2ccc(Cl)cc2)=NN1Cc1n[nH]c(=S)n1-c1ccc(Cl)cc1,,,3 µg/mL
CCC(C)CCCCCCC1CC(=O)NCC(=O)N[C@@H](CCCN)C(=O)N[C@@H](C(C)C)C(=O)N1,,ATCC 10231,2.5 µg/mL
CCOC(=O)c1sc2cc(-c3ccc(Br)cc3)oc(=O)c2c1N,,SKF,>100 µg/mL
Cc1ccc(C2=NN(Cc3n[nH]c(=S)n3-c3ccc(Cl)cc3)C(=O)CC2)cc1,,,6 µg/mL
CCCCCCCC/C=C\CC/C=C/[C@H]1C[C@H]([C@](O)(CC(=O)O)C(=O)O)C(=O)O1,,,>312 µM
CSc1cc(-c2ccc(C)cc2)c(C(=O)O)s1,,SKF,>100 µg/mL
CN1C(C(=O)Nc2nccs2)=C(O)c2ccccc2S1(=O)=O,biofilm,1760,>1000 µg/mL
O=C1CCC(c2ccc(Br)cc2)=NN1Cc1n[nH]c(=S)n1-c1ccccc1,,,8 µg/mL
CN1C(c2ccccc2)C/C(=N\OCc2ccccc2)C(Cl)C1c1ccccc1,,,100 µg/mL
CNC1C(C)OC(O[C@H]2c3cc(C)c(C(=O)NC(C)C(=O)O)c(OC)c3-c3c(cc4c(c3O)C(=O)c3cc(OC)cc(OC)c3C4=O)[C@@H]2O)C(O)C1OC1OCC(O)C(O)C1O,,A9540,>100 µg/mL
CC(=O)OC(CCCC12OC(C(=O)O)C(O)(C(=O)O)C(C(=O)O)(O1)C(OC(=O)CCCCCC/C=C/c1ccccc1)C2O)C(C)C/C=C/c1ccccc1,,SC,3.1 µg/mL
O=C1CCC(c2ccccc2)=NN1Cc1n[nH]c(=S)n1-c1ccc(Br)cc1,,,5 µg/mL

A second listing of 3 rows from above:

{"smiles": "Nc1ccc(-c2n[nH]c(=O)n2-c2ccccc2)cc1", "strain": "ATCC 2091", "result": "62.5 µg/mL"}
{"smiles": "CCC(C)CCCCCCC1CC(=O)NCC(=O)N[C@@H](CCCN)C(=O)N[C@@H](C(C)C)C(=O)N1", "strain": "ATCC 10231", "result": "2.5 µg/mL"}
{"smiles": "CN1C(c2ccccc2)C/C(=N\\OCc2ccccc2)C(Cl)C1c1ccccc1", "result": "100 µg/mL"}